Assay results reported in patent publication US20160264649A1 (published 2016).

Legend:
Assay in all cases: cell-based or functional assay
[1] = target: HIV-1 Env of isolate MG RM-C-007 (subtype C) (HIV-1)
[2] = target: HIV-1 Env of isolate MG RM-C-006 (subtype C) (HIV-1)
[3] = target: HIV-1 Env of isolate MG RM-C-012 (subtype C) (HIV-1)
[4] = target: HIV-1 Env of isolate MG RM-C-015 (subtype C) (HIV-1)
[5] = target: HIV-1 Env of isolate MG RM-C-017 (subtype C) (HIV-1)
[6] = target: HIV-1 Env of isolate MG RM-C-004 (subtype C) (HIV-1)
[7] = target: HIV-1 Env of isolate MG RM-C-005 (subtype C) (HIV-1)

B1: 1496_C09 (PG9) (TCN-109) (antibody, V domains shown)
VH: QRLVESGGGVVQPGSSLRLSCAASGFDFSRQGMHWVRQAPGQGLEWVAFIKYDGSEKYHADSVWGRLSISRDNSKDTLYLQMNSLRVEDTATYFCVREAGGPDYRNGYNYYDFYDGYYNYHYMDVWGKGTTVTVSS
VL: QSALTQPASVSGSPGQSITISCNGTSNDVGGYESVSWYQQHPGKAPKVVIYDVSKRPSGVSNRFSGSKSGNTASLTISGLQAEDEGDYYCKSLTSTRRRVFGTGTKLTVLG
IC50 (µg/mL), pseudovirus neutralization [1]: 0.064 µg/mL | IC50 (µg/mL), pseudovirus neutralization [2]: 0.427 µg/mL | IC50 (µg/mL), pseudovirus neutralization [3]: 0.61 µg/mL | IC50 (µg/mL), pseudovirus neutralization [4]: 0.427 µg/mL | IC50 (µg/mL), pseudovirus neutralization [5]: 2.69 µg/mL | IC50 (µg/mL), pseudovirus neutralization [6]: 2.01 µg/mL | IC50 (µg/mL), pseudovirus neutralization [7]: 8.74 µg/mL
